# Source: patent publication US20040177664A1, “Production of a high quality organic-based fertilizer” (priority 2003, published 2004)
# Assay: Odor reduction of municipal sludge, headspace GC-MS and odor
# Conditions: second series, 5.00 g sludge no dilution, 0.5 ml or 0.5 g addition
# Description: Effectiveness of the treatments was evaluated through the GC-MS analysis of the treated and untreated sludge. Sludge (5.0 g) was placed into a 44 ml vial. After heating to 60.0° C. for 5.0 minutes a probe of gas was taken from the vial (0.5 ml) and injected into the GC-MS.
# Hewlett-Packard (HP) GC 5890 coupled with an HP 5971 mass-spectrometer. The system incorporates an electron beam as an ion source. Ions are filtered through a glass with silver-coated quadruples.
# A DB5MS capillary chromatographic column is used and the MS is tuned with PFTBA in a Scan Mode (tune file: BFB.U).
# For further characterization the peak area of the 94-ion was selected. The calibration was performed using dimethyldisulfide. A calibration curve is presented in the attached data.
# In the first series, 6.00 g (±0.05) of the sludge with the addition of 10.0 ml of distilled water was used. For the treatment, we used potential oxidizers such as KNO3 and H2SO4 in different combinations.
# In the second series we used 5.00 g (±0.01) of the sludge with no dilution. For the treatment we used additions of hydrogen peroxide (30%) −0.5 ml, sulfuric acid (98%), −0.5 ml, a combination of hydrogen peroxide and 0.5 ml and sulfuric acid 0. ml, ammonia (54%) −0.5ml, calcium hypochlorite −0.5 g.
# The effectiveness of the additions is evaluated through decreasing the area of 94-ion signal with retention time around 1.94 minutes. […]
row,Compound,Peak area for line 94 at retention time of 1.93 and 1.74 minutes
1,"N [NH3, ammonia]","3,650 integration units (IU)"
2,"OO [Trial H2O2, hydrogen peroxide]","35,000 integration units (IU)"
